Taken from: PubChem BioAssay AID1259414 (Drosophila RNAi Screening Center, 2018)

Purpose: 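Fly genes that alter Wolbachia amount inside host cells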 (primary screen)
Cells: Drosophila JW18 cells infected with Wolbachia
Knock-down reagent: long dsRNA against Drosophila genes, 0.25 µg dsRNA per well of a 384-well plate
Time to read-out: 5 days
Challenge: cells persistently infected with Wolbachia before knock-down; no added drug
Read-out: 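Automated imaging of bacterial rRNA staining divided by host cell count, reported as plate-normalised robust z-score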
Scale: Wolbachia per cell robust z: higher = more Wolbachia per host cell than the plate typical
Hit rule: 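Hit when robust z is 1.5 or more, or -1.5 or less, in at least two of three replicates; excludes dsRNAs with several or no targets, genes not expressed in JW18 and well A1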
In all, the deposit lists about 24,000 reagents; this is a random part of those that have a named target and a result. In the full data, about 1,210 (5%) are marked active. 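Inactive calls also include excluded dsRNAs with several or no targets, genes unexpressed in JW18, and well A1, regardless of score.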 A number with no mark means an inactive call. Names joined by + are all predicted targets of the reagent. Reagent sequences are not shown.

no.	Target gene	amplicon	Wolbachia per cell robust z, rep 1	Wolbachia per cell robust z, rep 2	Wolbachia per cell robust z, rep 3
1	ms(3)K81 (male sterile (3) K81)	DRSC14746	0.412	-0.147	0.26
2	Syx4 (Syntaxin 4)	DRSC18586	-3.65	-0.906	-4.57
3	Syx4 (Syntaxin 4)	DRSC27586	1.31	-0.678	-4.84
4	lectin-46Cb	DRSC06611	2.19	-3.7	-1.11
5	lectin-46Cb	DRSC25309	0.473	-0.837	-0.844
6	Su(z)2 (Suppressor of zeste 2)	DRSC22970	0.346	0.427	0.133
7	CR33701 (pseudo)	DRSC37882	-0.404	-1.26	-3.18
8	Gr10a (Gustatory receptor 10a)	DRSC18897	0.244	0.386	-1.02
9	Gr10a (Gustatory receptor 10a)	DRSC22792	-1.5	-0.676	-1.92
10	Gr10a (Gustatory receptor 10a)	DRSC26071	-0.25	-0.237	0.765
11	CG31793	DRSC02605	-0.181	0.561	0.00768
12	CG31793	DRSC24308	0.559	-0.498	0.746
13	CG31441	DRSC15723	1.03	0.0697	-0.0583
14	CG31441	DRSC27463	-0.241	0.247	0.257
15	CG8320 + ATPCL	DRSC07147	0.87	0.974	-1.82
16	Mpc1	DRSC14770	-0.454	0.857	-0.208
17	CARPB (Carbonic anhydrase-related protein B)	DRSC18437	0.58	0.426	0.257
18	CARPB (Carbonic anhydrase-related protein B)	DRSC18438	-1.3	0.454	0.363
19	Fnta (Farnesyl transferase alpha subunit)	DRSC00557	0.989	0.112	0.645
20	Fnta (Farnesyl transferase alpha subunit)	DRSC28877	-1.16	-0.435	-2.44
21	CG31388	DRSC15254	-0.331	-0.0539	0.642
22	neb (nebbish)	DRSC03577	1.49	2.01	1.14
23	neb (nebbish)	DRSC28464	0.884 (active)	2.22	1.54
24	CG4497	DRSC02754	0.137	0.792	-2.14
25	CG8564	DRSC10997	0.0618	0.193	-0.538
26	CG31817	DRSC01537	-0.622	-0.863	-0.913
27	CG31817	DRSC01538	0.422	-6.12	-0.0492
28	CG31817	DRSC22476	-4.79	-0.769	-1.27
29	Ranbp21	DRSC19447	-0.597	-1.2	0.918
30	CG14752	DRSC06488	1.21	0.368	-2.18
31	CG32563	DRSC19934	-2.49	0.209	-1.74
32	CG32563	DRSC29716	-0.178	0.587	-0.262
33	beat-Ia (beaten path Ia)	DRSC03489	0.475	-0.827	-5.37
34	beat-Ia (beaten path Ia)	DRSC25576	1.06	0.633	2.25

The list goes on, starting with the last 3 of the part before.
no.	Target gene	amplicon	Wolbachia per cell robust z, rep 1	Wolbachia per cell robust z, rep 2	Wolbachia per cell robust z, rep 3
32	CG32563	DRSC29716	-0.178	0.587	-0.262
33	beat-Ia (beaten path Ia)	DRSC03489	0.475	-0.827	-5.37
34	beat-Ia (beaten path Ia)	DRSC25576	1.06	0.633	2.25
35	Snr1 (Snf5-related 1)	DRSC12369	-0.0589	0.00654	-0.658
36	tut (tumorous testis)	DRSC08909	-0.0244	0.468	-1.28
37	CG13334	DRSC06369	0.645	-0.753	0.507
38	CG3222	DRSC10355	0.507	1.27	0.797
39	CG33461	DRSC22892	-1.95	-2.14	-1.65
40	CG33461	DRSC26007	0.0602	0.463	-1.11
41	eya (eyes absent)	DRSC03510	0.467	0.0567	0.372
42	eya (eyes absent)	DRSC40867	0.16	-0.0236	0.0512
43	CG43394	DRSC01013	-0.806	-0.553	-1.89
44	CG43394	DRSC21835	-4.17 (active)	-3.34	-2.68
45	CG43394	DRSC28255	0.978	-0.64	-0.897
46	CG15286	DRSC23386	1.03	1.14	2.52
47	bsd (back seat driver)	DRSC05953	-1.01	0.0641	-3.7
48	CG31313	DRSC13044	0.783	0.678	0.437
49	CG34241	DRSC38845	0.623	0.0727	0.463
50	TMEM216 (Transmembrane protein 216)	DRSC16378	0.443	0.21	0.75
51	TMEM216 (Transmembrane protein 216)	DRSC25583	-0.171	0.646	-0.66
52	CG4115	DRSC15545	1.11	0.0326	1.09
53	CG13032	DRSC09912	0.891	0.0319	0.279
54	CG17475	DRSC15238	0.547	-0.729	0.83
55	CG17475	DRSC27674	0.223	-1.13	-1.46
56	CG17108	DRSC02576	-1.23	-0.676	-0.803
57	CG17108	DRSC22214	0.833	0.958	-0.307
58	CG17108	DRSC25301	-1.36	-1.24	-2.36
59	Osi5 (Osiris 5)	DRSC12276	-0.155	-0.732	1.14
60	Glo1 (Glyoxalase 1)	DRSC06657	-0.172	0.297	1.47
61	Pex12 (Peroxin 12)	DRSC00622	-0.903	0.874	0.39
62	Pex12 (Peroxin 12)	DRSC27149	2.28 (active)	1.09	2.03
63	beat-VI (beaten path VI)	DRSC14474	-2.48	-1.25	0.119
64	beat-VI (beaten path VI)	DRSC14727	0.25	-3.73	-5.3
65	Art7 (Arginine methyltransferase 7)	DRSC04588	-0.0383	1.47	0.641
66	Art7 (Arginine methyltransferase 7)	DRSC26145	0.97	0.675	0.203
67	Vajk4	DRSC06589	-1.97	-0.864	0.0148
68	Vajk4	DRSC07003	-0.202	0.273	-1.59
69	Vajk4	DRSC25326	0.401	-0.544	0.53
